Anti-infective test results gathered from many reports (values: NIAID ChemDB through PubChem).

Shared fields: growth or infection tests; species: HIV-1; cells: MT-2; measure: EC50

Conditions beyond the fields shown may differ between rows. ECn is the concentration giving n% inhibition of infection, replication or growth. An empty or dashed field is not shown.

compound | strain or isolate | mutations | read by | value
Nc1ccc(CN2C(=O)N(Cc3ccc4[nH]ncc4c3)[C@H](Cc3ccccc3)[C@H](O)[C@@H](O)[C@H]2Cc2ccccc2)cc1F | RF | - | - | <0.007 µM
Nc1ncnc2c1ncn2CCOCP(=O)(O)O | IIIB | - | XTT | 16 µM
[Li+] | IIIB | - | cytopathic effect / MTT | >200 µg/mL
Nc1nc(N)c2ncn([C@H]3CO[C@@H](CO)O3)c2n1 | - | RT-L74V | cytopathic effect / XTT | 80 µM
O=C(Cn1nccn1)c1cccc(CN2C(=O)N(Cc3ccc4[nH]ncc4c3)[C@H](Cc3ccccc3)[C@H](O)[C@@H](O)[C@H]2Cc2ccccc2)c1 | RF | - | - | <0.015 µM
O=C(C(=O)N1CCN(C2=Nc3cc(Cl)ccc3Nc3ccccc32)CC1)c1c[nH]c2ccccc12 | LAI | - | luciferase / reporter gene / single cycle | >0.5 µM
Nc1ccc(CN2C(=O)N(Cc3ccc4[nH]ncc4c3)[C@H](Cc3ccccc3)[C@H](O)[C@@H](O)[C@H]2Cc2ccccc2)cc1-n1cccn1 | RF WT | - | - | <0.006 µM
CN1CCN(C2=c3cc(O)ccc3=Nc3ccc(Cl)cc3N2O)CC1 | IIIB | - | cytopathic effect / MTT | 81 µg/mL
CN(C)CCOc1ccc(C[C@@H]2[C@H](O)[C@@H](O)[C@@H](Cc3ccc(OCCN(C)C)cc3)N(Cc3cccc(-c4ccn[nH]4)c3)C(=O)N2Cc2cccc(-c3ccn[nH]3)c2)cc1 | RF | - | hybridisation | <5.4 µM
Nc1nc(NC2CC2)c2ncn([C@H]3C=C[C@@H](CO)C3)c2n1 | HXB2D (RT D67N K70R T215Y) | RT-D67N K70R T215Y | - | 0.0007 µM
CC(C)CN(C[C@@H](O)[C@H](Cc1ccccc1)NC(=O)O[C@H]1CCOC1)S(=O)(=O)c1ccc(N)cc1 | HXB2 | - | cytopathic effect | 0.033 µM
Nc1ccn([C@H]2CC[C@@H](CO)O2)c(=O)n1 | LAI | RT-K65R | p24 | 6.6 µM
O=c1[nH]cnc2c1ncn2[C@H]1CC[C@@H](CO)O1 | T215Y(RT-T215Y) | RT-T215Y | p24 | 2.2 µM
O=C(/C=C/c1ccc(O)c(O)c1)O[C@@H]1C[C@](OC(=O)/C=C/c2ccc(O)c(O)c2)(C(=O)O)C[C@@H](O)[C@H]1O | LAI | - | - | 4 µM
Cc1cn([C@H]2C[C@H](N=[N+]=[N-])[C@@H](CO)O2)c(=O)[nH]c1=O | LAI | RT-K65R | p24 | 0.01 µM
OCCOCCN1CCN(C2=Nc3ccccc3Sc3ccccc32)CC1 | IIIB | - | cytopathic effect / MTT | >17 µg/mL
CC(C)(C)NC(=O)[C@@H]1C[C@@H]2CCCC[C@@H]2CN1C[C@@H](O)[C@H](Cc1ccccc1)NC(=O)[C@H](CC(N)=O)NC(=O)c1ccc2ccccc2n1 | RF | - | RT activity | 0.0134 µM
O=c1[nH]cnc2c1ncn2[C@H]1CC[C@@H](CO)O1 | IIIB | - | - | 20 µM
CNc1cc(CN2C(=O)N(Cc3ccc4[nH]ncc4c3)[C@H](Cc3ccccc3)[C@H](O)[C@@H](O)[C@H]2Cc2ccccc2)ccc1F | RF | - | - | <0.007 µM
Cc1cn([C@H]2C[C@H](N=[N+]=[N-])[C@@H](CO)O2)c(=O)[nH]c1=O | HXB2 | - | p24 | 0.013 µM
Cc1cn([C@H]2C[C@H](N=[N+]=[N-])[C@@H](CO)O2)c(=O)[nH]c1=O | IIIB | - | cytopathic effect / MTT | 0.02 µg/mL
CC1(C)O[C@@H]1COc1c2occc2cc2ccc(=O)oc12 | NL4-3 Recombinant VSV-pseudotyped | - | luciferase | 25 µM
Nc1nc2c(ncn2[C@H]2CO[C@@H](CO)O2)c(=O)[nH]1 | LAI | - | p24 | 0.28 µM
Cc1cn([C@H]2C[C@H](N=[N+]=[N-])[C@@H](CO)O2)c(=O)[nH]c1=O | NL4-3 | - | p24 | 0.002 µM
CCCc1c([Se]c2ccccc2)n(COCC)c(=O)[nH]c1=O | Cat #3 strain | - | p24 | 0.62 µM
O=C1N(Cc2cccc(-c3ccn[nH]3)c2)[C@H](Cc2ccc(OCCO)cc2)[C@H](O)[C@@H](O)[C@@H](Cc2ccc(OCCO)cc2)N1Cc1cccc(-c2ccn[nH]2)c1 | RF | - | hybridisation | <0.462 µM
O=C1N(Cc2ccc(CO)cc2)[C@H](Cc2ccccc2)[C@H](O)[C@@H](O)[C@@H](Cc2ccccc2)N1Cc1ccc(CO)cc1 | Clinical isolate E | - | plaque count / virus yield | <0.07 µg/mL
CCCCC#CCSc1ccccc1OC(C)=O | 41+215Y AZT-resistant (RT-M41L T215F) | RT-M41L T215F | - | 2.1 µM
CCOCn1c(Sc2ccccc2)c(CC)c(=O)[nH]c1=O | LAI | - | cytopathic effect / MTT | <0.04 µM
Nc1ccn([C@H]2CC[C@@H](CO)O2)c(=O)n1 | IIIB | - | - | 0.6 µM
C[C@H](Cn1cnc2c(N)ncnc21)OCP(=O)(O)O | HXB2D | - | cytopathic effect / XTT | 0.003 µM
CSc1ccc2c(c1)N=C(N1CCNCC1)c1ccccc1N2 | IIIB | - | cytopathic effect / MTT | >17 µg/mL
Nc1ncnc2c1ncn2[C@@H]1O[C@H](CO)C[C@@H]1F | K65R(RT-K65R) | RT-K65R | p24 | 12 µM
O=C1N(Cc2cccc(Cn3nccn3)c2)[C@H](Cc2ccccc2)[C@H](O)[C@@H](O)[C@@H](Cc2ccccc2)N1Cc1ccc2[nH]ncc2c1 | RF | - | - | <0.032 µM
Nc1nc(F)nc2c1ncn2[C@H]1CC[C@@H](CO)O1 | LAV | - | syncytia | 9 µM
CC(C)=CCOc1cc(Nc2nccc(CO)n2)ccc1Cl | IIIB | - | cytopathic effect / MTT | >0.22 µM
COc1ccc(-n2cnc(C)n2)c2[nH]cc(C(=O)C(=O)N3CCN(C4=Nc5cc(Cl)ccc5Nc5ccccc54)CC3)c12 | LAI | - | luciferase / reporter gene / single cycle | <0.5 µM
O=C(CCCN1CCC(O)(c2ccc(Cl)cc2)CC1)c1ccc(F)cc1 | IIIB | - | cytopathic effect / MTT | >20 µg/mL
O=C1N(Cc2cccc(-c3ccn[nH]3)c2)[C@H](Cc2ccccc2)[C@H](O)[C@@H](O)[C@@H](Cc2ccccc2)N1Cc1cccc(-c2ccn[nH]2)c1 | RF | - | hybridisation | <0.056 µM
O=c1[nH]cnc2c1ncn2[C@H]1CC[C@@H](CO)O1 | - | RT-K103N | p24 | 0.4 µM
OCCN1CCN(CCCN2c3ccccc3Sc3ccc(C(F)(F)F)cc32)CC1 | IIIB | - | cytopathic effect / MTT | >4.7 µg/mL
O=C(C(=O)N1CCN(C2=Nc3ccccc3Oc3ccc(Cl)cc32)CC1)c1c[nH]c2c(Br)ccc(F)c12 | LAI | - | luciferase / reporter gene / single cycle | >0.5 µM
O=C1N(Cc2cccc(-c3ccn[nH]3)c2)[C@H](Cc2ccc(OCCN3CCOCC3)cc2)[C@H](O)[C@@H](O)[C@@H](Cc2ccc(OCCN3CCOCC3)cc2)N1Cc1cccc(-c2ccn[nH]2)c1 | RF | - | hybridisation | <1.033 µM
COC(=O)N[C@H](C(=O)N[C@@H](Cc1ccccc1)[C@@H](O)CN(Cc1ccc(-c2ccccn2)cc1)NC(=O)[C@@H](NC(=O)OC)C(C)(C)C)C(C)(C)C | BRU | - | RT activity | 0.00528 µM
O=c1[nH]c(Cl)nc2c1ncn2[C@H]1CC[C@@H](CO)O1 | LAV | - | syncytia | >20 µM
O=c1[nH]cnc2c1ncn2[C@H]1CC[C@@H](CO)O1 | NL4-3 | - | p24 | 0.31 µM
Nc1ccn([C@H]2CC[C@@H](CO)O2)c(=O)n1 | - | RT-T69G | p24 | 0.282 µM
Cc1ccc(CN2C(=O)N(Cc3ccc4[nH]ncc4c3)[C@H](Cc3ccccc3)[C@H](O)[C@@H](O)[C@H]2Cc2ccccc2)cc1N | RF | - | - | <0.015 µM
OC[C@H]1O[C@@H](n2cnc3cc(Cl)c(Cl)cc32)[C@H](O)[C@@H]1O | NL4-3 Recombinant VSV-pseudotyped | - | luciferase | <50 µM
COC(=O)N[C@H](C(=O)N[C@@H](Cc1ccccc1)[C@@H](O)CN(Cc1ccc(-c2ccccn2)cc1)NC(=O)[C@@H](NC(=O)OC)C(C)(C)C)C(C)(C)C | NL4-3 | - | - | 0.00158 µM
Cc1cn([C@H]2C[C@H](N=[N+]=[N-])[C@@H](CO)O2)c(=O)[nH]c1=O | IIIB | - | - | 0.09 µM
O=C1N(Cc2ccccc2)[C@H](Cc2ccc(OCCN3CCOCC3)cc2)[C@H](O)[C@@H](O)[C@@H](Cc2ccc(OCCN3CCOCC3)cc2)N1Cc1ccccc1 | RF | - | hybridisation | <0.23 µM
Nc1ncnc2c1ncn2CCOCP(=O)(O)O | RT F77L/F116Y/Q151M | RT-F77L F116Y Q151M | p24 | 1.9 µM
C[C@@H](Cn1cnc2c(N)nc(N)nc21)OCP(=O)(OCOC(=O)C(C)(C)C)OCOC(=O)C(C)(C)C | IIIB | - | - | 0.2 µM
COc1nc(Cl)nc(Nc2ccc(Cl)c(OCC=C(C)C)c2)n1 | IIIB | - | cytopathic effect / MTT | >26 µM
O=C1N(Cc2ccc(F)c(NCc3nc4ccccc4[nH]3)c2)[C@H](Cc2ccccc2)[C@H](O)[C@@H](O)[C@@H](Cc2ccccc2)N1Cc1ccc2[nH]ncc2c1 | RF | - | - | <0.03 µM
CC(C)(C)OC(=O)N[C@@H](Cc1ccccc1)[C@H](O)CNC[C@@H](O)[C@H](Cc1ccc(OCC(=O)N2CCOCC2)cc1)NC(=O)OC(C)(C)C | RF | - | p24 | 0.03 µM
COCCNC(=O)[C@@H](NC(=O)[C@H](Cc1ccc(OC)c(OC)c1OC)C[C@H](O)[C@H](Cc1ccccc1)NC(=O)OC(C)(C)C)C(C)C | MN | - | RT activity | <0.03 µM
COC(=O)Cc1cccc(CN2C(=O)N(Cc3ccc4[nH]ncc4c3)[C@H](Cc3ccccc3)[C@H](O)[C@@H](O)[C@H]2Cc2ccccc2)c1 | RF | - | - | <0.032 µM
C[C@H](Cn1cnc2c(N)ncnc21)OCP(=O)(OCOC(=O)C(C)(C)C)OCOC(=O)C(C)(C)C | IIIB | - | - | 0.5 µM
Nc1nc(Cl)nc2c1ncn2[C@H]1CC[C@@H](CO)O1 | LAV | - | syncytia | 10 µM
Nc1nc2c(ncn2[C@H]2CO[C@@H](CO)O2)c(=O)[nH]1 | - | RT-K65R Q151M | cytopathic effect / XTT | 41 µM
Cc1cn([C@H]2C=C[C@@H](CO)O2)c(=O)[nH]c1=O | HXB2D | - | cytopathic effect / XTT | 0.008 µM
[N-]=[N+]=N[C@H]1C[C@H](n2ccc(N)nc2=O)O[C@@H]1CO | LAI WT | - | p24 | 15.6 µM
CCCc1cc(=O)oc2c3c(c4c(c12)OC(C)(C)C=C4)O[C@@H](C)[C@H](C)[C@H]3O | G910-6 AZT-resistant | - | cytopathic effect / MTT | >25 µM
O=C(O)C1(O)C[C@@H](O)C(O)[C@H](O)C1 | LAI | - | - | >1822 µM
CC(C)CN(C[C@@H](O)[C@H](Cc1ccccc1)NC(=O)O[C@H]1CCOC1)S(=O)(=O)c1ccc(N)cc1 | RF | - | RT activity | 0.0534 µM
Nc1ccn([C@H]2CC[C@@H](CO)O2)c(=O)n1 | A-17 (TIBO-RS) | - | cytopathic effect / MTT | ~0.07 µM

For reference, 6 entries again:

| compound | strain or isolate | mutations | read by | value |
|---|---|---|---|---|
| CC(C)(C)NC(=O)[C@@H]1C[C@@H]2CCCC[C@@H]2CN1C[C@@H](O)[C@H](Cc1ccccc1)NC(=O)[C@H](CC(N)=O)NC(=O)c1ccc2ccccc2n1 | RF | - | RT activity | 0.0134 µM |
| Cc1cn([C@H]2C=C[C@@H](CO)O2)c(=O)[nH]c1=O | HXB2D | - | cytopathic effect / XTT | 0.008 µM |
| COc1nc(Cl)nc(Nc2ccc(Cl)c(OCC=C(C)C)c2)n1 | IIIB | - | cytopathic effect / MTT | >26 µM |
| COC(=O)Cc1cccc(CN2C(=O)N(Cc3ccc4[nH]ncc4c3)[C@H](Cc3ccccc3)[C@H](O)[C@@H](O)[C@H]2Cc2ccccc2)c1 | RF | - | - | <0.032 µM |
| Nc1nc(F)nc2c1ncn2[C@H]1CC[C@@H](CO)O1 | LAV | - | syncytia | 9 µM |
| O=C(C(=O)N1CCN(C2=Nc3cc(Cl)ccc3Nc3ccccc32)CC1)c1c[nH]c2ccccc12 | LAI | - | luciferase / reporter gene / single cycle | >0.5 µM |